{"source": "patent US20190062383A1", "about": "“Kv1.3 Antagonists and Methods of Use” (Janssen / Centocor, published 2019)", "binders": {"B1": {"name": "KV1N2 (OsK1-Fc fusion) (Fc fusion)", "chain": "GVIINVKCKISRQCLEPCKKAGMRFGKCMNGKCHCTPKGSGGGGSGGGGSGGGGSGGGGS"}}, "target": "human Kv1.3 (human, UniProt P22001 1-575)", "experiment": "cell-based or functional assay", "data": [{"binder": "B1", "values": [{"measurement": "Kv1.3 IC50, whole-cell patch clamp", "result": 0.3, "unit": "nM"}]}]}
